# PubChem BioAssay AID504863 (Sanford-Burnham Center for Chemical Genomics, 2011)
# The entries are a selection whose mix differs from that of the whole data set. Active and inactive are the calls of the source.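 How the source made its calls: active means inhibition averaging 50% or more, tested at 20 µM; inactive means the rest.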
# Tested on: diaphorase (Clostridium kluyveri)
# Assay: C. kluyveri diaphorase inhibition, resazurin coupling – biochemical, fluorescence intensity, 30 µM NADPH, counter-screen for P. falciparum G6PD inhibitor project, confirmation (AID 504863);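 further: 0% = DMSO with enzyme and 100% = DMSO wells lacking diaphorase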
# Settings: Diaphorase/resazurin coupled assay, resorufin fluorescence, at 20 µM, active compounds read high
smiles,measurement,value
CN(C)C(=O)c1cc([N+](=O)[O-])cc2c1-c1c(cc([N+](=O)[O-])cc1[N+](=O)[O-])C2=O,inhibition,active: 79.8%
